{
  "source": "patent US8343559B1",
  "about": "“Furanocoumarin removal from grapefruit juice by edible fungal hyphae” (The United States of America as represented by the …, priority 2008, dated 2013)",
  "key": {"[1]": {"tested_on": "autoclaved Aspergillus niger", "test": "Changes in concentrations of compounds in grapefruit juice incubated with autoclaved Aspergillus niger for 4 days (HPLC)", "settings": "for Concentrations in grapefruit juice in the presence (+) of autoclaved Aspergillus niger / Concentrations in grapefruit juice in the absence (−) of autoclaved Aspergillus niger: 100 mL grapefruit juice, 4 days, 25° C.; for Concentrations in grapefruit juice in the presence (+) of autoclaved Aspergillus niger: 2 g (fresh weight) autoclaved A. niger; for Concentrations in grapefruit juice in the absence (−) of autoclaved Aspergillus niger: no fungus; for Share of compound in grapefruit juice bound to dead A. niger: autoclaved A. niger, 4 days (Table 1)"}, "Saccharomyces cerevisiae": {"tested_on": "Saccharomyces cerevisiae", "test": "Removal of nonpolar furanocoumarins in grapefruit juice by autoclaved, dried yeast", "settings": "3 g autoclaved, air-dried S. cerevisiae, 50 mL grapefruit juice, 4 hr, 25° C."}, "[2]": {"tested_on": "autoclaved Aspergillus niger", "test": "Recycle experiment: second treatment of grapefruit juice with autoclaved Aspergillus niger", "settings": "for Remained in GFJ compared to control GFJ: after first and second 3 g of autoclaved A. niger, 4 hr each; for Additionally removed from pre-incubated GFJ: second 3 g autoclaved A. niger, 4 hr, 50 mL GFJ pre-treated with 3 g for 4 hr"}},
  "data": [
    {"molecule": "C[C@@H]1O[C@@H](O[C@H]2[C@H](Oc3cc(O)c4c(c3)O[C@H](c3ccc(O)cc3)CC4=O)O[C@H](CO)[C@@H](O)[C@@H]2O)[C@H](O)[C@H](O)[C@H]1O", "note": "[Naringin]", "values": [
      {"measurement": "Concentrations in grapefruit juice in the presence (+) of autoclaved Aspergillus niger", "setting": "[1]", "value": 47.36, "unit": "ppm"},
      {"measurement": "Concentrations in grapefruit juice in the absence (−) of autoclaved Aspergillus niger", "setting": "[1]", "value": 45.62, "unit": "ppm"}
    ]},
    {"molecule": "COc1ccc([C@@H]2CC(=O)c3c(O)cc(O[C@@H]4O[C@H](CO)[C@@H](O)[C@H](O)[C@H]4O[C@@H]4O[C@@H](C)[C@H](O)[C@@H](O)[C@H]4O)cc3O2)cc1", "note": "[Poncirin]", "values": [
      {"measurement": "Concentrations in grapefruit juice in the presence (+) of autoclaved Aspergillus niger", "setting": "[1]", "value": 2.14, "unit": "ppm"},
      {"measurement": "Concentrations in grapefruit juice in the absence (−) of autoclaved Aspergillus niger", "setting": "[1]", "value": 2.29, "unit": "ppm"}
    ]},
    {"molecule": "C[C@@H]1O[C@@H](OC[C@H]2O[C@@H](Oc3cc(O)c4c(c3)O[C@H](c3ccc(O)cc3)CC4=O)[C@H](O)[C@@H](O)[C@@H]2O)[C@H](O)[C@H](O)[C@H]1O", "note": "[Narirutin]", "values": [
      {"measurement": "Concentrations in grapefruit juice in the presence (+) of autoclaved Aspergillus niger", "setting": "[1]", "value": 9.16, "unit": "ppm"},
      {"measurement": "Concentrations in grapefruit juice in the absence (−) of autoclaved Aspergillus niger", "setting": "[1]", "value": 8.47, "unit": "ppm"}
    ]},
    {"molecule": "CC(=CCOc1c2ccoc2cc2oc(=O)ccc12)CCC(O)C(C)(C)O", "note": "(stereo not shown) [6′,7′-dihydroxybergamottin]", "values": [
      {"measurement": "Removal", "setting": "Saccharomyces cerevisiae", "value": 73, "unit": "%"},
      {"measurement": "Concentrations in grapefruit juice in the presence (+) of autoclaved Aspergillus niger", "setting": "[1]", "value": 1.72, "unit": "ppm"},
      {"measurement": "Concentrations in grapefruit juice in the absence (−) of autoclaved Aspergillus niger", "setting": "[1]", "value": 2.46, "unit": "ppm"},
      {"measurement": "Share of compound in grapefruit juice bound to dead A. niger", "setting": "[1]", "value": "~30", "unit": "%"},
      {"measurement": "Remained in GFJ compared to control GFJ", "setting": "[2]", "value": 16, "unit": "%"},
      {"measurement": "Additionally removed from pre-incubated GFJ", "setting": "[2]", "value": "approximately 25%"}
    ]},
    {"molecule": "CC(C)=CCC/C(C)=C/COc1c2ccoc2cc2oc(=O)ccc12", "note": "[Bergamottin]", "values": [
      {"measurement": "Removal", "setting": "Saccharomyces cerevisiae", "value": 91, "unit": "%"},
      {"measurement": "Concentrations in grapefruit juice in the presence (+) of autoclaved Aspergillus niger", "setting": "[1]", "value": 0.39, "unit": "ppm"},
      {"measurement": "Concentrations in grapefruit juice in the absence (−) of autoclaved Aspergillus niger", "setting": "[1]", "value": 1.75, "unit": "ppm"},
      {"measurement": "Additionally removed from pre-incubated GFJ", "setting": "[2]", "value": "~16", "unit": "%"}
    ]},
    {"molecule": "CC(C)=CCC/C(C)=C/COc1ccc2ccc(=O)oc2c1", "note": "[7-geranyloxycoumarin]", "values": [
      {"measurement": "Concentrations in grapefruit juice in the presence (+) of autoclaved Aspergillus niger", "setting": "[1]", "value": 0.13, "unit": "ppm"},
      {"measurement": "Concentrations in grapefruit juice in the absence (−) of autoclaved Aspergillus niger", "setting": "[1]", "value": 0.33, "unit": "ppm"}
    ]},
    {"molecule": "COc1cc(/C=C/C(=O)O)ccc1O", "note": "[Ferulic acid]", "values": [
      {"measurement": "Concentrations in grapefruit juice in the presence (+) of autoclaved Aspergillus niger", "setting": "[1]", "value": 0.48, "unit": "ppm"},
      {"measurement": "Concentrations in grapefruit juice in the absence (−) of autoclaved Aspergillus niger", "setting": "[1]", "value": 0.43, "unit": "ppm"}
    ]},
    {"molecule": "COc1ccc([C@@H]2CC(=O)c3c(O)cc(O[C@@H]4O[C@H](CO)[C@@H](O)[C@H](O)[C@H]4O[C@@H]4O[C@@H](C)[C@H](O)[C@@H](O)[C@H]4O)cc3O2)cc1O", "note": "[Neohesperidin]", "values": [
      {"measurement": "Concentrations in grapefruit juice in the presence (+) of autoclaved Aspergillus niger", "setting": "[1]", "value": 2.40, "unit": "ppm"},
      {"measurement": "Concentrations in grapefruit juice in the absence (−) of autoclaved Aspergillus niger", "setting": "[1]", "value": 2.17, "unit": "ppm"}
    ]},
    {"molecule": "C/C(=C\\COc1c2ccoc2cc2oc(=O)ccc12)CCC1OC1(C)C", "note": "(stereo not shown) [6′,7′-epoxybergamottin]", "values": [
      {"measurement": "Removal", "setting": "Saccharomyces cerevisiae", "value": 82, "unit": "%"},
      {"measurement": "Concentrations in grapefruit juice in the presence (+) of autoclaved Aspergillus niger", "setting": "[1]", "value": 0.05, "unit": "ppm"},
      {"measurement": "Concentrations in grapefruit juice in the absence (−) of autoclaved Aspergillus niger", "setting": "[1]", "value": 0.57, "unit": "ppm"},
      {"measurement": "Share of compound in grapefruit juice bound to dead A. niger", "setting": "[1]", "value": "Approximately 87%"},
      {"measurement": "Remained in GFJ compared to control GFJ", "setting": "[2]", "value": 6, "unit": "%"},
      {"measurement": "Additionally removed from pre-incubated GFJ", "setting": "[2]", "value": "~26", "unit": "%"}
    ]}
  ]
}
